Results of unrelated studies side by side (data: NIAID ChemDB).

Common to all: tests in culture; species: Hepatitis C virus; method: replicon; read-out: EC50

Rows are shuffled and stem from different studies.

CNC(=O)c1c(-c2ccccc2)oc2ccc(C)cc12 ; cells: Huh7 ; value: <10 µM
CC(C)(C)OC(=O)N1/C=C\CCn2c(c(C3CCCCC3)c3ccc(C(=O)O)cc32)-c2ccccc21 ; cells: Huh7 ; value: 1–10 µM
C[C@@H](NC(=O)OCc1ccccc1)C(=O)Nc1ccc(C2SC(=Nc3cccc(F)c3)N(CCc3cccs3)C2=O)cc1 ; cells: Huh7 ; value: 0.1–1 µM
Cc1ccc(-n2ncc3c(NC(=O)Nc4ccc(C)c(C)c4)ncnc32)c(C)c1 ; cells: HUH 9B ; value: <1 µM
CC(C)(c1ccc(F)cc1)c1nc(-c2cn(Cc3ccc(C(F)(F)F)cc3)c3cc(N4CCOCC4)c(F)cc3c2=O)no1 ; strain or isolate: 1b ; value: <0.5 µM
CC[C@@H]1C[C@]1(NC(=O)[C@@H]1C[C@@H](Oc2cc(-c3ccccc3)nc3cc(OC)ccc23)CN1C(=O)[C@@H](NC(=O)OC1CCCC1)C(C)C)C(=O)NS(=O)(=O)C1CC1 ; cells: Huh7 ; strain or isolate: 1b ; value: <0.05 µM
O=C(Nc1cccc(-c2cc(-c3ccccc3OC(F)F)no2)c1)C(Cl)Cl ; value: ≤10 µM
CC(c1ccccc1)c1nc(-c2cn(Cc3ccc(C(C)(C)C)cc3)c3cc(N4CCCNCC4)c(F)cc3c2=O)no1 ; strain or isolate: 1b ; value: <2 µM
C=C[C@@H]1C[C@]1(NC(=O)[C@@H]1C[C@@H](Oc2cc(-c3ccccc3)nc3cc(OC)ccc23)CN1C(=O)[C@@H](NC(=O)OCC1CC1)C(C)(C)C)C(=O)NS(=O)(=O)C1CC1 ; cells: Huh7 ; strain or isolate: 1b ; value: <0.05 µM
CCCCc1ccc(Nc2ncnc3c2cnn3-c2ccccc2Cl)cc1 ; cells: HUH 9B ; value: 1–10 µM
O=C(Nc1cccc(-c2cc(-c3ccccc3C3CCCC3)no2)c1)C(Cl)Cl ; value: ≤10 µM
CCCCCc1nc(-c2cn(Cc3ccc(C(F)(F)F)cc3F)c3cc(N4CCN(C)CC4)c(F)cc3c2=O)no1 ; strain or isolate: 1b ; value: >10 µM
C=C[C@@H]1C[C@]1(NC(=O)[C@@H]1C[C@@H](Oc2cc(-c3ccccc3)nc3cc(OC)ccc23)CN1C(=O)[C@@H](NC(=O)C(F)(F)F)C(C)(C)C)C(=O)NS(=O)(=O)C1CC1 ; cells: Huh7 ; strain or isolate: 1b ; value: <0.5 µM
CN1CCN(c2cc3c(cc2F)c(=O)c(-c2noc(Cc4ccc(F)cc4)n2)cn3Cc2ccc(Cl)cc2)CC1 ; strain or isolate: 1b ; value: >10 µM
CNC(=O)c1c(-c2ccc(F)cc2)oc2cc(N(C)S(=O)(=O)CC3CC3)c(OC(C)C)cc12 ; cells: Huh7 ; value: <1 µM
C[C@H](O)C(=O)Nc1ccc(-c2ccc3nc(NCc4ccc(S(N)(=O)=O)cc4)nc(NCC(F)(F)F)c3n2)cc1F ; value: <0.1 µM
O=C(O)/C=C/c1ccc(NC(=O)C2(NC(=O)c3ccc4c(C5CCCCC5)c5n(c4c3)CCCCN(CCO)c3ccncc3-5)CCCC2)cc1 ; cells: Huh7 ; value: 0.01–1 µM
O=C(Nc1cc(-c2cc(-c3c(Cl)cccc3Cl)no2)ccc1OCCN1CCOCC1)C(Cl)Cl ; value: >10 µM
CNC(=O)c1c(-c2ccc(F)cc2)oc2cc(C3CCCN3C(=O)NC)c(OC)cc12 ; cells: Huh7 ; value: <10 µM
O=c1[nH]cccc1-c1c(C2=NS(=O)(=O)c3ccccc3N2)n(Cc2ccccc2F)c2cc(F)c3ccoc3c12 ; value: <0.5 µM
O=C(O)c1ccc2c(C3CCCCC3)c3n(c2c1)CC(C(=O)N1CCOCC1)=Cc1ccncc1-3 ; cells: Huh7 ; value: 1–10 µM
CC(C)Oc1cc2c(C(=O)NC3CC3)c(-c3ccc(F)cc3)oc2cc1NS(C)(=O)=O ; cells: Huh7 ; value: <1 µM
O=C(Nc1ccc(C2SC(=Nc3ccc(N4CCOCC4)cc3)N(Cc3ccccn3)C2=O)cc1)[C@H]1CCC(=O)N1C(=O)OCc1ccccc1 ; cells: Huh7 ; value: <0.1 µM
CC(C)(C)C(=O)OCn1cc(F)c(Cn2c(C(=O)O)c(-c3ccc[nH]c3=O)c3c4occc4c(F)cc32)cc1=O ; value: <0.5 µM
CNC(=O)c1c(-c2ccc(F)cc2)oc2cc(-c3ncon3)c(OC(C)C)cc12 ; cells: Huh7 ; value: <1 µM
COC(=O)c1ccc2c(C3CCCCC3)c3n(c2c1)CC(C(=O)N1CCN(c2ccncc2)CC1)Cc1ccccc1-3 ; cells: Huh7 ; value: 0.01–1 µM
NC(=O)COc1ccc2c(c1)S(=O)(=O)N=C(c1c(O)c3cc(F)ccc3n(CCC3CC3)c1=O)N2 ; strain or isolate: 1b 45969 ; value: 0.18 µM
CN=C1SC(c2ccc(NC(=O)[C@@H](C)NC(=O)OCc3ccccc3)cc2)C(=O)N1Cc1ccccn1 ; cells: Huh7 ; value: 0.1–1 µM
CN1CCN(c2cc3c(cc2F)c(=O)c(-c2noc(Cc4ccc(F)cc4)n2)cn3Cc2ccc(Cl)cc2F)CC1 ; strain or isolate: 1b ; value: <2 µM
CCOc1nc(N)nc2ccc(-c3ccc(NC(=O)CC)cc3)nc12 ; cells: Huh7 ; value: <0.3 µM
O=C(O)c1c(-c2ccc[nH]c2=O)c2c3occc3c(F)cc2n1Cc1cc2[nH]c(=O)[nH]c2cc1Cl ; value: <0.5 µM
NS(=O)(=O)c1ccc(CNc2nc(NCC(F)F)c3nc(-c4ccc(F)cc4)ccc3n2)cc1 ; value: <0.1 µM
O=C(Nc1ccc(C2SC(=Nc3cccc(F)c3)N(Cc3ccco3)C2=O)cc1)[C@H]1CCCN1C(=O)Cc1ccc(Cl)cc1 ; cells: Huh7 ; value: 0.1–1 µM
O=C(O)c1c(-c2ccc[nH]c2=O)c2c3ncccc3ccc2n1Cc1ccccc1F ; value: 1–10 µM
C[C@@H](NC(=O)OCc1ccccc1)C(=O)Nc1ccc(C2SC(=Nc3ccc(N4CCOCC4)cc3)N(c3ccccn3)C2=O)cc1 ; cells: Huh7 ; value: 0.1–1 µM
O=C1Cn2c(c(C3CCCCC3)c3ccc(C(=O)NS(=O)(=O)N4CCCC4)cc32)-c2ccccc2N1 ; cells: Huh7 ; value: 0.01–1 µM
Cc1ccc(-n2ncc3c(NC(=O)Nc4ccc(C(F)(F)F)cc4)ncnc32)c(C)c1 ; cells: HUH 9B ; value: 1–10 µM
CN1CCN(c2cccc(C(F)(F)F)c2-c2cc(-c3cccc(NC(=O)C(Cl)Cl)c3)on2)CC1 ; value: ≤10 µM
Fc1ccc(-n2ncc3c(NCCc4c[nH]c5ccccc45)ncnc32)c(F)c1 ; cells: HUH 9B ; value: 1–10 µM
COc1nc(N)nc2c1ncn2[C@@H]1O[C@H](COP(=O)(N[C@@H](C)C(=O)OC(C)C)Oc2ccccc2)[C@@H](O)[C@@]1(C)F ; conditions: 115 d ; strain or isolate: 2a ; value: 0.055 µM
CC(C)N1CCN(S(=O)(=O)c2cc(-c3ccc4nc(NCc5ccc(S(N)(=O)=O)cc5)nc(NCC(F)(F)F)c4n3)ccc2F)CC1 ; value: <0.1 µM
CNC(=O)c1c(-c2ccc(F)cc2)oc2cc(C(C)(C)O)c(C)cc12 ; cells: Huh7 ; value: <10 µM
CN=C1SC(c2ccc(NC(=O)[C@H]3CCCN3C(=O)OCc3ccccc3)cc2)C(=O)N1Cc1ccccn1 ; cells: Huh7 ; value: <0.1 µM
Nc1cc(Cn2c(C(=O)NS(=O)(=O)c3ccc(O)cc3)c(-c3ccc[nH]c3=O)c3c4ccccc4ccc32)ccn1 ; value: 1–10 µM
NS(=O)(=O)c1ccc(CNc2nc(NCC(F)(F)F)c3nc(-c4cccc(S(N)(=O)=O)c4)ccc3n2)cc1 ; value: <0.1 µM
N#CCCCC(c1ccccc1)c1nc(-c2cn(Cc3ccc(C(F)(F)F)cc3F)c3ccccc3c2=O)no1 ; strain or isolate: 1b ; value: <0.5 µM
C=C[C@@H]1C[C@]1(NC(=O)[C@@H]1C[C@@H](Oc2cc(-c3ccccc3)nc3cc(OC)ccc23)CN1C(=O)[C@@H](NS(C)(=O)=O)C(C)(C)C)C(=O)NS(=O)(=O)C1CC1 ; cells: Huh7 ; strain or isolate: 1b ; value: <0.5 µM
COc1cccc(F)c1-c1cc(-c2cccc(NC(=O)C(Cl)Cl)c2)on1 ; value: ≤10 µM
COC(=O)c1ccc2c(C3CCCCC3)c3n(c2c1)CC(=O)N3 ; cells: Huh7 ; value: 1–10 µM
C[C@H](NC(=O)OCc1ccccc1)C(=O)Nc1ccc(C2SC3=Nc4ccccc4CN3C2=O)cc1 ; cells: Huh7 ; value: 1–5 µM
COc1cc(Cn2c(C(=O)OCOC(=O)C(C)(C)C)c(-c3cccn(COC(=O)C(C)(C)C)c3=O)c3c4occc4c(F)cc32)c(F)cn1 ; value: <0.5 µM
CC(C)(N)C(=O)Nc1ccc(-c2ccc3nc(NCc4ccc(S(N)(=O)=O)cc4)nc(NCCS(C)(=O)=O)c3n2)cc1 ; value: 0.1–0.25 µM
O=C(Nc1cccc(-c2cc(-c3ccccc3OCc3ccccc3)no2)c1)C(Cl)Cl ; value: >10 µM
CCOc1nc(N)nc2ccc(-c3cccc(NS(=O)(=O)C(C)C)c3)nc12 ; cells: Huh7 ; value: <0.3 µM
C=C[C@@H]1C[C@]1(NC(=O)[C@@H]1C[C@@H](Oc2cc(-c3ccccc3)nc3cc(OC)ccc23)CN1C(=O)[C@@H](NC(=O)OCOC(C)=O)C(C)(C)C)C(=O)NS(=O)(=O)C1CC1 ; cells: Huh7 ; strain or isolate: 1b ; value: <0.5 µM
CN1CCN(c2cc3c(cc2F)c(=O)c(-c2noc(Cc4ccccc4)n2)cn3Cc2c(F)cccc2F)CC1 ; strain or isolate: 1b ; value: <10 µM
COC(=O)c1ccc2c(c1)CCN(S(=O)(=O)NC(=O)c1ccc3c(C4CCCCC4)c4n(c3c1)CC(=O)Nc1ccccc1-4)C2 ; cells: Huh7 ; value: 1–10 µM
CNC(=O)c1c(-c2ccc(F)cc2)oc2cc(N(C)S(C)(=O)=O)c(OCc3ccccc3C(=O)OC)cc12 ; cells: Huh7 ; value: <1 µM
Cc1[nH]c2ccc3c(c(-c4ccccc4F)c(C(=O)O)n3Cc3ccccc3)c2c1C ; value: >1.5 µM
C[C@@H](C(=O)N1CCC[C@@H]1C(=O)Nc1ccc(C2SC(=Nc3ccc(N4CCOCC4)cc3)N(Cc3ccccn3)C2=O)cc1)c1ccccc1 ; cells: Huh7 ; value: <0.1 µM
Cc1ccccc1Cn1c(C(=O)O)c(-c2ccc[nH]c2=O)c2c3occc3ccc21 ; value: <0.5 µM
CN1CCN(c2cc3c(cc2F)c(=O)c(-c2noc(Cc4ccccc4)n2)cn3Cc2ccc(Cl)nc2)CC1 ; strain or isolate: 1b ; value: >10 µM
O=C(O)c1c(-c2ccc[nH]c2=O)c2c3ccccc3c(F)cc2n1Cc1cc([N+](=O)[O-])ccc1F ; value: <1 µM
COc1ccc(Cl)cc1Nc1ncnc2c1cnn2-c1ccccc1Cl ; cells: HUH 9B ; value: >10 µM
C=C[C@@H]1C[C@]1(NC(=O)[C@@H]1C[C@@H](Oc2cc(-c3ccccc3)nc3cc(OC)ccc23)CN1C(=O)[C@@H](NC(=O)OC(C)(C)C)C(C)(C)C)C(=O)NS(=O)(=O)c1ccccc1C(F)(F)F ; cells: Huh7 ; strain or isolate: 1b ; value: <0.5 µM
NS(=O)(=O)c1ccc(CNc2nc(NCC(F)(F)F)c3nc(-c4csc(N5CCCC5)n4)ccc3n2)cc1 ; value: <0.1 µM
Cc1ccc(-n2ncc3c(Nc4ccc(N5CCOCC5)cc4)ncnc32)c(C)c1 ; cells: HUH 9B ; value: <1 µM
Nc1nc(O[C@H]2CCOC2)c2nc(-c3ccc(C(=O)NCCN4CCCC4)cc3)ccc2n1 ; cells: Huh7 ; value: <0.3 µM
Cc1ccc(-n2ncc3c(Nc4ccc(C(F)(F)F)cc4)ncnc32)c(C)c1 ; cells: HUH 9B ; value: <1 µM
O=C(Nc1cccc(-c2cc(-c3ccccc3C(F)(F)F)no2)c1)C(Cl)Cl ; value: ≤10 µM

5 of the rows above, restated:

Fc1ccc(-n2ncc3c(NCCc4c[nH]c5ccccc45)ncnc32)c(F)c1 ; cells: HUH 9B ; value: 1–10 µM
O=C(Nc1cccc(-c2cc(-c3ccccc3C(F)(F)F)no2)c1)C(Cl)Cl ; value: ≤10 µM
Cc1ccc(-n2ncc3c(Nc4ccc(N5CCOCC5)cc4)ncnc32)c(C)c1 ; cells: HUH 9B ; value: <1 µM
O=c1[nH]cccc1-c1c(C2=NS(=O)(=O)c3ccccc3N2)n(Cc2ccccc2F)c2cc(F)c3ccoc3c12 ; value: <0.5 µM
C=C[C@@H]1C[C@]1(NC(=O)[C@@H]1C[C@@H](Oc2cc(-c3ccccc3)nc3cc(OC)ccc23)CN1C(=O)[C@@H](NC(=O)OC(C)(C)C)C(C)(C)C)C(=O)NS(=O)(=O)c1ccccc1C(F)(F)F ; cells: Huh7 ; strain or isolate: 1b ; value: <0.5 µM

ECn: concentration that inhibits the pathogen or its effect by n%. a–b is a range or a potency band.